Each compound was assayed on L1210 (assay: In vitro cytotoxicity against L1210 murine leukemia cells).

Question: How did the IC50 turn out when `Cn1cc(NC(=O)c2cc(NC(=O)c3cc(NC(=O)/C=C/c4ccc(SCCCl)cc4)cn3C)cn2C)cc1C(=O)NCCC(=N)N` was run?
Answer: Its IC50 is 0.9 nM.

Question: How did the IC50 turn out when `Cn1cc(NC(=O)c2cc(NC(=O)c3cc(NC(=O)c4ccc([S+]([O-])CCCl)cc4)cn3C)cn2C)cc1C(=O)NCCC(=N)N` (configuration not stated) was run?
Answer: Its IC50 is greater than 600 nM.

Question: `CCN(CCCl)c1ccc(/C=C/C(=O)Nc2cc(C(=O)Nc3cc(C(=O)Nc4cc(C(=O)NCCC(=N)N)n(C)c4)n(C)c3)n(C)c2)cc1` was tested. Which IC50 did it give?
Answer: The IC50 was 2.9 nM.

Question: How did the IC50 turn out when `Cn1cc(NC(=O)c2cc(NC(=O)c3cc(NC(=O)/C=C/c4ccc([S+]([O-])CCCl)cc4)cn3C)cn2C)cc1C(=O)NCCC(=N)N` (configuration not stated) was run?
Answer: Its IC50 is greater than 600 nM.

Question: With `Cn1cc(NC(=O)c2cc(NC(=O)c3cc(NC(=O)c4ccc(NCCCl)cc4)cn3C)cn2C)cc1C(=O)NCCC(=N)N` as the compound, how does the IC50 read?
Answer: Its IC50 is greater than 600 nM.

Question: Which IC50 does the source give for `Cn1cc(NC(=O)c2cc(NC(=O)c3cc(NC(=O)c4ccc(SCCCl)cc4)cn3C)cn2C)cc1C(=O)NCCC(=N)N` here?
Answer: Its IC50 is 20.6 nM.

Question: `CCN(CCCl)c1ccc(C(=O)Nc2cc(C(=O)Nc3cc(C(=O)Nc4cc(C(=O)NCCC(=N)N)n(C)c4)n(C)c3)n(C)c2)cc1` was tested. Which IC50 did it give?
Answer: Its IC50 is 60 nM.

— ChEMBL document CHEMBL1133246, “Phenyl sulfur mustard derivatives of distamycin A” (2000)
